From patent US6512006B1, “HIV protease inhibitors” (Warner-Lambert Company, priority 1999, dated 2003)

Each molecule was assayed on HIV infected lymphocyte derived CEM cells (assay: Cellular Infection Assay, XTT cytopathic procedure in CEM cells (antiviral efficacy)). Conditions: therapeutic index (TC50/EC50).
Type: cell-based
Description: Compounds were tested in lymphocyte derived CEM cells using the XTT cytopathic procedures and were performed at Southern Research Institute (Buckheit, et al., Antiviral Res., 1993;21:247; see also Weislow, et al., J. Nat. Cancer Inst., 1989;81:577). Compound concentrations were 0.32, 1, 3.2, 10, 32, and 100 μM. The EC50 represents the concentration of agent, which reduces HIV cytopathic effects 50% relative to untreated control. Cellular toxicity of the agents are estimated from the TC50 which represents the concentration of the agent which inhibits 50% of the viability of uninfected cells.
EC50 indicates the concentration of the drug which provide 50% protection against HIV.

SMILES	TI
CCCN(C1=C(O)CC(CCc2ccccc2)(C(C)C)OC1=O)c1cccc(NS(=O)(=O)c2ccc(C(F)(F)F)cn2)c1 (stereo not shown) [Example 1, 5-Trifluoromethyl-pyridine-2-sulfonic acid {3-[(4-hydroxy-6-isopropyl-2-oxo-6-phenethyl-5,6-dihydro-2H-pyran-3-yl)-propyl-amino]-phenyl}-amide]	90
CCCN(C1=C(O)CC(CCc2ccc(O)cc2)(C(C)C)OC1=O)c1cccc(NS(=O)(=O)c2ccc(C(F)(F)F)cn2)c1 (stereo not shown) [Example 2, 5-Trifluoromethyl-pyridine-2-sulfonic acid [3-({4-hydroxy-6-[2-(4-hydroxy-phenyl)-ethyl]-6-isopropyl-2-oxo-5,6-dihydro-2H-pyran-3-yl}-propyl-amino)-phenyl]-amide]	71
CCN(C1=C(O)CC(CCc2ccccc2)(C(C)C)OC1=O)c1cccc(NS(=O)(=O)c2ccc(C(F)(F)F)cn2)c1 (stereo not shown) [Example 3, 5-Trifluoromethyl-pyridine-2-sulfonic acid {3-[ethyl-(4-hydroxy-6-isopropyl-2-oxo-6-phenethyl-5,6-dihydro-2H-pyran-3-yl)-amino]-phenyl}-amide]	60
CCCN(C1=C(O)CC(CCc2ccc(O)cc2)(C(C)C)OC1=O)c1cccc(NS(=O)(=O)c2ccc(C(F)(F)F)cn2)c1 (stereo not shown) [Example 4, 5-Trifluoromethyl-pyridine-2-sulfonic acid [3-({4-hydroxy-6-[2-(4-hydroxy-phenyl)-ethyl]-6-isopropyl-2-oxo-5,6-dihydro-2H-pyran-3-yl}-propyl-amino)-phenyl]-amide]	76.4
CCCC1(CCc2ccc(O)cc2)CC(O)=C(N(CC)c2cccc(NS(=O)(=O)c3ccc(C(F)(F)F)cn3)c2)C(=O)O1 (stereo not shown) [Example 5, 5-Trifluoromethyl-pyridine-2-sulfonic acid [3-(ethyl-{4-hydroxy-6-[2-(4-hydroxy-phenyl)-ethyl]-2-oxo-6-propyl-5,6-dihydro-2H-pyran-3-yl}-amino)-phenyl]-amide]	86.9
CCN(C1=C(O)CC(CCc2ccc(O)cc2)(C(C)C)OC1=O)c1cccc(NS(=O)(=O)c2ccc(C(F)(F)F)cn2)c1 (stereo not shown) [Example 6, 5-Trifluoromethyl-pyridine-2-sulfonic acid [3-(ethyl-{4-hydroxy-6-[2-(4-hydroxy-phenyl)-ethyl]-6-isopropyl-2-oxo-5,6-dihydro-2H-pyran-3-yl}-amino)-phenyl]-amide]	102.3
CCCN(C1=C(O)CC(CCc2ccc(O)cc2)(C(C)C)OC1=O)c1ccccc1 (stereo not shown) [Example 7, 4-Hydroxy-6-[2-(4-hydroxy-phenyl)-ethyl]-6-isopropyl-3-(phenyl-propyl-amino)-5,6-dihydro-pyran-2-one]	153.8
CCCN(C1=C(O)CC(CCc2cccc(O)c2)(C2CCCC2)OC1=O)c1ccccc1 (stereo not shown) [Example 8, 6-Cyclopentyl-4-hydroxy-6-[2-(3-hydroxy-phenyl)-ethyl]-3-(phenyl-propyl-amino)-5,6-dihydro-pyran-2-one]	51.5
CCCCN(C1=C(O)CC(CCc2ccc(O)cc2)(C(C)C)OC1=O)c1ccccc1 (stereo not shown) [Example 13, 3-(Butyl-phenyl-amino)-4-hydroxy-6-[2-(4-hydroxy-phenyl)-ethyl]-6-isopropyl-5,6-dihydro-pyran-2-one]	104
CC(C)C1(CCc2ccc(O)cc2)CC(O)=C(N(CCC#N)c2ccccc2)C(=O)O1 (stereo not shown) [Example 21, 3-({4-Hydroxy-6-[2-(4-hydroxy-phenyl)-ethyl]-6-isopropyl-2-oxo-5,6-dihydro-2H-pyran-3-yl}-phenyl-amino)-propionitrile]	118.5
